Experimental data reported in PubChem BioAssay AID1706 (The Scripps Research Institute Molecular Screening Center, 2009).
The list shows a part of the results, in another mix than the full data. Calls of active or inactive are those of the source. Cut-off read from the data, not from the text of the source: active = inhibition above about 12%; inactive = the rest.

Target: Replicase polyprotein 1ab (Severe acute respiratory syndrome coronavirus) (UniProt P0C6X7)
Assay: SARS-CoV 3CLpro protease inhibitors, primary screen, biochemical, quenched FRET (AID 1706)
Details: recombinant SARS-CoV 3CLpro, quenched FRET peptide cleavage; at 6 µM; active compounds read high

| SMILES | inhibition |
| --- | --- |
| Cc1cc(C)cc(OP(C)(=O)Nc2cccc(C(F)(F)F)c2)c1 (stereo not drawn) | inactive: -3.25% |
| COc1ccccc1OP(C)(=O)Nc1ccc(C)c(C)c1 (stereo not drawn) | inactive: 1.44% |
| COc1ccc(OP(C)(=O)Nc2ccccc2Br)cc1 (stereo not drawn) | inactive: -2.88% |
| Cc1nc2ccc3ccccc3c2o1.O=[N+]([O-])c1cc([N+](=O)[O-])c(O)c([N+](=O)[O-])c1 | inactive: -4.46% |
| CP(=O)(OCCOc1ccccc1)OCCOc1ccccc1 | inactive: -2.65% |
| CP(=O)(Nc1ccc(Cl)cc1Cl)Oc1ccccc1 (stereo not drawn) | inactive: 1.67% |
| COc1ccccc1OP(C)(=O)Nc1ccc(Br)cc1 (stereo not drawn) | inactive: 2.56% |
| COc1ccc(OP(C)(=O)Nc2ccccn2)cc1 (stereo not drawn) | inactive: 3.34% |
| CN(C)CCOC(=O)C(O)(c1ccccc1)C1CCCC1 (stereo not drawn) | inactive: 0.91% |
| O=[N+]([O-])c1cc([N+](=O)[O-])c(Nc2ccccn2)c([N+](=O)[O-])c1 | inactive: 4.7% |
| Cc1c(NP(C)(=O)Oc2ccc(C(C)C)cc2)c(=O)n(-c2ccccc2)n1C (stereo not drawn) | inactive: 3.07% |
| CP(=O)(Nc1ccccn1)Oc1ccccc1 (stereo not drawn) | inactive: 3.07% |
| COc1ccccc1OP(C)(=O)Nc1ccc(C)cc1C (stereo not drawn) | inactive: -4.76% |
| CCc1ccc(OP(C)(=O)O)cc1 | inactive: -3.27% |
| CCN(CC)CC(O)COC(=O)C(O)(c1ccccc1)C1CCCCC1 (stereo not drawn) | inactive: -1.47% |
| COc1ccc(OP(C)(=O)Nc2ccc(Br)cc2)cc1 (stereo not drawn) | inactive: 0.19% |
| COc1ccccc1OP(C)(=O)Nc1c(C)n(C)n(-c2ccccc2)c1=O (stereo not drawn) | inactive: -7.09% |
| O=C(OCCCN1CCCC1)C(O)(c1ccccc1)C1CCCCC1 (stereo not drawn) | inactive: 7.34% |
| CP(=O)(Oc1ccccc1)N1CCOC1=O (stereo not drawn) | inactive: -1.84% |
| CCc1ccc(OP(C)(=O)Nc2cccnc2)cc1 (stereo not drawn) | inactive: 5.06% |
| CC(C)(C)c1ccc(OP(C)(=O)O)cc1 | inactive: -1.11% |

| SMILES | inhibition |
| --- | --- |
| COc1ccccc1OP(C)(=O)Nc1ccccc1Br (stereo not drawn) | inactive: 3.89% |
| CP(=O)(Nc1ccc(Cl)cc1)Oc1ccc(F)cc1 (stereo not drawn) | inactive: 4.01% |
| CN(C)C(=O)c1c([N+](=O)[O-])cc([N+](=O)[O-])cc1[N+](=O)[O-] | inactive: 3.92% |
| CCOC(=O)c1ccc(NP(C)(=O)Oc2ccc(Cl)cc2)cc1 (stereo not drawn) | inactive: 3.43% |
| CP(=O)(OC12CC3CC(CC(C3)C1)C2)OC12CC3CC(CC(C3)C1)C2 | inactive: -3.35% |
| COc1ccc(OP(C)(=O)Nc2cccc(Br)c2)cc1 (stereo not drawn) | inactive: 0.23% |
| CN(C)CCOC(=O)C(O)(c1ccccc1)C1CCCCC1 (stereo not drawn) | inactive: -0.56% |
| COc1ccc(NP(C)(=O)Oc2ccccc2OC)cc1 (stereo not drawn) | inactive: -0.59% |
| O=[N+]([O-])c1ccc(OP2(=O)COCCO2)cc1 (stereo not drawn) | inactive: -1.99% |
| O=[N+]([O-])c1cc([N+](=O)[O-])c(NCC2CCS(=O)(=O)C2)c([N+](=O)[O-])c1 (stereo not drawn) | inactive: 0.31% |
| Cc1cc(-c2cccc3ccccc23)c(C)cn1.O=[N+]([O-])c1cc([N+](=O)[O-])c(O)c([N+](=O)[O-])c1 | inactive: 7.59% |
| CP(=O)(Nc1ccc(SC(F)(F)F)cc1)Oc1ccc(F)cc1 (stereo not drawn) | inactive: -0.11% |
| CCOP(C)(=S)SCC(=O)NC(C)(CC)C(=O)O (stereo not drawn) | inactive: -9.35% |
| CP(=O)(Nc1ccc2c(c1)OCCO2)Oc1ccccc1 (stereo not drawn) | inactive: 1.13% |
| Cc1ccccc1NP(C)(=O)Nc1ccccc1C | inactive: 1.47% |
| CP(=O)(Nc1ccccc1F)Oc1ccccc1 (stereo not drawn) | inactive: 3.57% |
| CC(C)c1ccc(OP(C)(=O)Nc2ccc(SC(F)(F)F)cc2)cc1 (stereo not drawn) | inactive: 2.86% |
| O=C(OC1CN2CCC1CC2)c1ccc([N+](=O)[O-])cc1 (stereo not drawn) | inactive: -0.48% |
| CCOC(=O)c1ccc(NP(C)(=O)Oc2ccc(F)cc2)cc1 (stereo not drawn) | inactive: -7.91% |
| COc1ccc(OP(C)(=O)Nc2ccc(SC(F)(F)F)cc2)cc1 (stereo not drawn) | inactive: 5.63% |
| CCN(CC)CCCOC(=O)C(O)(c1ccccc1)C1CCCCC1 (stereo not drawn) | inactive: -0.48% |

| SMILES | inhibition |
| --- | --- |
| CP(=O)(Nc1ccccc1)Oc1ccc(F)cc1 (stereo not drawn) | inactive: -4.06% |
| O=[N+]([O-])c1cc([N+](=O)[O-])c(OC2CCCCC2O)c([N+](=O)[O-])c1 (stereo not drawn) | inactive: 3.7% |
| CCCCCOc1ccc(NP(C)(=O)Oc2ccc(Cl)cc2Cl)cc1 (stereo not drawn) | inactive: 3.42% |
| O=C(O)c1cccc(Nc2c([N+](=O)[O-])cc([N+](=O)[O-])cc2[N+](=O)[O-])c1 | inactive: -0.7% |
| CC1=NCCc2c1[nH]c1ccccc21.O=[N+]([O-])c1cc([N+](=O)[O-])c(O)c([N+](=O)[O-])c1 | inactive: -5.41% |
| COc1ccccc1OP(C)(=O)Nc1cccc(Br)c1 (stereo not drawn) | inactive: -2.68% |
| CCOC(=O)c1ccc(NP(C)(=O)Oc2cc(C)cc(C)c2)cc1 (stereo not drawn) | inactive: 5.48% |
| Cc1cc(C)cc(OP(C)(=O)Nc2ccc(C)cc2C)c1 (stereo not drawn) | inactive: -2.27% |
| Cc1ccc(C)c(NP(C)(=O)Oc2ccccc2)c1 (stereo not drawn) | inactive: -0.35% |
| CP(=O)(Nc1cccc(Br)c1)Oc1ccccc1 (stereo not drawn) | inactive: 0.79% |
| Cc1cc(C)cc(OP(C)(=O)Nc2ccccn2)c1 (stereo not drawn) | inactive: 2.1% |
| O=[N+]([O-])c1cc([N+](=O)[O-])c(-n2nnc3ccccc32)c([N+](=O)[O-])c1 | inactive: 2.73% |
| Cc1nc2ccc3ccccc3c2s1.O=[N+]([O-])c1cc([N+](=O)[O-])c(O)c([N+](=O)[O-])c1 | inactive: 4.55% |
| O=[N+]([O-])c1cc([N+](=O)[O-])c(Nc2nnnn2CCO)c([N+](=O)[O-])c1 | inactive: -1.88% |
| CCOC(=O)C(CC)C1=NC(C)(C)Cc2ccccc21.O=[N+]([O-])c1cc([N+](=O)[O-])c(O)c([N+](=O)[O-])c1 (stereo not drawn) | inactive: -0.23% |
| COc1ccccc1OP(C)(=O)Nc1c(C)cccc1C (stereo not drawn) | inactive: -4.44% |
| CN1CCCCC1COC(=O)C1(O)c2ccccc2CCc2ccccc21 (stereo not drawn) | inactive: 0.35% |
| CP(=O)(Nc1ccc(SC(F)(F)F)cc1)Oc1ccccc1 (stereo not drawn) | inactive: -5.73% |
| CCCOc1ccc(NP(C)(=O)Oc2ccc(Cl)cc2)cc1 (stereo not drawn) | inactive: 4.65% |
| CP(=S)(Nn1cnnc1)Oc1ccccc1 (stereo not drawn) | inactive: 2.45% |
| CP(=O)(Nc1ccccc1Br)Oc1ccccc1 (stereo not drawn) | inactive: -2.75% |

| SMILES | inhibition |
| --- | --- |
| COc1ccccc1OP(C)(=O)Nc1ccccc1 (stereo not drawn) | inactive: -3.28% |
| Cc1cccc(C)c1OP(C)(=O)Nc1ccc(SC(F)(F)F)cc1 (stereo not drawn) | inactive: 5.26% |
| CP(=O)(Nc1ccc(SC(F)(F)F)cc1)Oc1ccc(Cl)cc1 (stereo not drawn) | inactive: 3.65% |
| CP(=O)(Oc1ccccc1)OC(c1ccccc1)C(F)(F)F (stereo not drawn) | inactive: 2.01% |
| CCc1ccc(OP(C)(=O)N2CCN(c3ccc([N+](=O)[O-])cc3)CC2)cc1 (stereo not drawn) | inactive: 3.47% |
| CP(=O)(NC(=O)Nc1ccccc1)Oc1ccccc1 (stereo not drawn) | inactive: -0.37% |
| Cc1cc(C)cc(OP(C)(=O)Nc2ccc(SC(F)(F)F)cc2)c1 (stereo not drawn) | inactive: 1.01% |
| CCOC(=O)c1ccc(NP(C)(=O)Oc2ccc(OC)cc2)cc1 (stereo not drawn) | inactive: 7.93% |
| CCOP(C)(=S)SCC(=O)NC(C)C(=O)O (stereo not drawn) | inactive: -1.33% |
| CP(=O)(Nc1ccccn1)Oc1ccc(Cl)cc1 (stereo not drawn) | inactive: 2.47% |
| CCN(CC)CCCOC(=O)C(O)(c1ccccc1)c1ccccc1 | inactive: -3.73% |
| O=[N+]([O-])c1ccc2c(c1)C=Nc1ccccc1O2 | inactive: 6.77% |
| CC(C)(C)c1ccc(OP(C)(=O)Nc2ccc(SC(F)(F)F)cc2)cc1 (stereo not drawn) | inactive: -4.97% |
| Cc1cccc(C)c1OP(C)(N)=O (stereo not drawn) | inactive: 1.28% |
| COc1ccccc1OP(C)(=O)Nc1ccc(C)cc1 (stereo not drawn) | inactive: -3.13% |
| Cc1ccc(NP(C)(=O)Oc2ccccc2)c(C)c1 (stereo not drawn) | inactive: 1.31% |
| CCOC(=O)c1ccc(NP(C)(=O)Oc2ccccc2)cc1 (stereo not drawn) | inactive: -4.4% |
| Cc1cc(C)cc(OP(C)(N)=O)c1 (stereo not drawn) | inactive: -2.95% |
| COc1ccccc1OP(C)(=O)Nc1cc(Cl)ccc1C (stereo not drawn) | inactive: -4.87% |
| COc1ccc(OP(C)(=O)Nc2cccc(F)c2)cc1 (stereo not drawn) | inactive: 1.39% |
